Several values for one entry are separate records, joined by “and”; a condition that tells them apart may be missing. Equal values may be shown once. Read-outs that look alike come from different tables or passages of the source.
Tested on: human lung epithelial cancer cell line A549
Details: LD50 in A549 divided by IC50 with ResGlp
Description: The cells were maintained in Dulbecco’s modified Eagle medium (DMEM) containing 10% fetal bovine serum (FBS) and 1% penicillin-streptomycin. At passage 11, 10^5 cells were transferred into each well of 96-well plates and cultured for 18 to 24 h to allow the cells to adhere to the well surface. Next, the medium was removed, and fresh medium containing the selected compounds at concentration range of 1 to 512 μM was added to the wells. Controls with equivalent serial concentrations of DMSO were also evaluated and compared with a control without DMSO. The plate was incubated at 37°C with 5% CO2. After 24 h, the supernatant was removed and 50 μL of 5 mg/mL 3-(4,5-dimethylthiazol-2-yl)-2,5-diphenyltetrazoliumbromide (MTT) solution in PBS was added to each well. The plates were incubated for an additional 4 h, and the formazan crystals formed inside the cell were dissolved by adding 50 μL DMSO. Next, the absorbance was measured at 570 nm, and the calculated LD50 was divided by the IC50 of each hit in order to determine the SI of each compound.

Structure (SMILES)	SI (LD50/IC50) (listed as B)	SI (LD50/IC50) (listed as hit B)	SI (LD50/IC50)
Cc1[nH]c2ccc(CNc3cc(N)ncn3)cc2c1C [Hit B]	350.2 and > 350	350	
CC(Cc1ccc2c(c1)OCO2)c1c(-c2ccccc2)ncn1CCO (stereo not drawn) [Hit C]			730

From article PMC10128061, “Targeting Sterylglucosidase A to Treat Aspergillus fumigatus Infections” (mBio, 2023)
